Laboratory results: PubChem BioAssay AID504761 (Drosophila RNAi Screening Center, 2011)
Screen: 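Fly genes whose silencing reduces dengue virus type 2 infection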 (primary screen). Cells: D.Mel-2 cells from Drosophila. Reagent: long dsRNA against Drosophila genes. Conditions: infection with dengue virus type 2; dose and infection time not stated. Measured: 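Cells stained for dengue envelope protein and imaged; percent of infected cells per well on duplicate plates, ranked by infection, with stained nuclei counted for cell number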. Scale: infection score: higher = more virus-infected cells. Hit rule: 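Very low infection ranking in both replicate wells (chance probability at most 0.065), then a retest showing infection dropped 1.5-fold or more at p below 0.05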. Meaning of the calls: active = confirmed: knock-down lowers infection; inactive = not picked or not confirmed.
The deposit covers about 22,000 reagents; below is a random part of those that have a named target and a result. Of all reagents, 116 (0.52%) were called active. 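Calls depend on retest data that are not deposited; infection was ranked per plate without normalising between plates; the unit of the infection score is not given.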 Unmarked entries are inactive. A plus sign joins genes that one reagent is predicted to hit. Not all columns of the deposit are shown. Not stated in the record: the amount of reagent, the time to read-out.

infection score, replicate 1, by gene knocked down and reagent
CG18301 (GeneID 34451): DRSC02662 7.4
CG14052 (GeneID 31203): DRSC17907 1.87; DRSC18192 2.43; DRSC25215 1.69
CG13784 (GeneID 34003): DRSC00974 1.09
Cyp28d1 (GeneID 33749): DRSC03298 4.13; DRSC21331 4.4; DRSC28292 23
Gba1a (GeneID 42796): DRSC21494 2.66
CG42512 + CG32573: DRSC19532 5.61; DRSC19906 7.04; DRSC22782 1.74
mv (GeneID 38259): DRSC08208 2.91; DRSC08570 2.12; DRSC28733 3.88
CG9072 (GeneID 32443): DRSC20147 8.11
CG31391 (GeneID 41280): DRSC16047 13.1
dbe (GeneID 33269): DRSC00811 3.66
eIF2beta (GeneID 39433): DRSC11341 13.8; DRSC28025 19.7
Cyp310a1 (GeneID 35115): DRSC03301 14.9; DRSC29160 18.5
Eaat1 (GeneID 34251): DRSC03321 11.5
Oat (GeneID 40145): DRSC11043 5.52
Cmpk (GeneID 43165): DRSC16643 1.44
mino (GeneID 43350): DRSC14132 4.1
Amacr (GeneID 35337): DRSC03198 14
CG11630 (GeneID 35429): DRSC03696 2.34
smal (GeneID 5740323): DRSC02318 3.09; DRSC02319 3.43; DRSC02320 3.65; DRSC02504 4.77; DRSC22866 1.04; DRSC26352 17.2
CG7542 (GeneID 39960): DRSC10868 4.88
Mes2 (GeneID 40514): DRSC11593 0.57; DRSC11632 9.07
POSH (GeneID 36990): DRSC07499 8.65
BomS2 (GeneID 49802): DRSC21488 2.49
CG33493 (GeneID 2768994): DRSC10642 2.98; DRSC25546 1.51
gNacalpha (GeneID 33279): DRSC00654 6; DRSC29840 2.66
Cyp49a1 (GeneID 36105): DRSC06737 4.06; DRSC07367 4.32
CG33339 (GeneID 2768681): DRSC22917 3.48; DRSC29651 30.6
CG1428 (GeneID 35433): DRSC03708 27.4
CG1806 (GeneID 32163): DRSC19787 1.65
tfc (GeneID 38141): DRSC07953 0.91; DRSC07954 0.19; DRSC08626 3.55; DRSC21704 2.71; DRSC23750 6.7
Acbp3 (GeneID 38783): DRSC11022 5.03; DRSC25356 1.43
cGlr2 (GeneID 246606): DRSC04017 0.78
Rnmt (GeneID 34877): DRSC03558 2.95
